The subject of the test is Ebola VLP entry into HeLa cells.

For `CN1CCN(CCCN2c3ccccc3Sc3ccc(S(=O)(=O)N(C)C)cc32)CC1` [Thioproperazine], the “Selectivity Index” value was more than 116 fold.

Spiramycin: for the setting “read-out: Block Ebola VLP entry IC50”, the IC50 (usually the concentration that inhibits the measured activity by half) worked out at 4.32 µM.
